The exact form of at least one protein or probe is not confirmed.
Target: T1, Spo0A-DBD-6xHis (Clostridium difficile 630Δerm) (UniProt I6ZTX1)
T1 sequence: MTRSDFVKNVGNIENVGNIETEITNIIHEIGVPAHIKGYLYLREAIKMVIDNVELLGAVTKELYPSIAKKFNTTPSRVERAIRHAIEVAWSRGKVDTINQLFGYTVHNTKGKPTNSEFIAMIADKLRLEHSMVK
Experiment: EMSA
Settings: EMSA: 10 mM Tris-HCl pH 7.6, 1 mM EDTA, 50 mM NaCl, 1 mM DTT, 5% glycerol, 200 ug/mL BSA, 200 cpm/uL 32P-DNA, 20 min at 30 C; 8% native PAGE in 1x TAE; recombinant protein; protein details: C-terminal 6xHis; label: 32P 5' end; probe letters rebuilt from the primers and the genome

Q: Does “GACAATTGTCCACTAACTCATAACTTTTTTCTTTTGCTACCAACATGTAAATCTCCCCCATATATAAAACAAATTTATAGGTATATTATAGTCTAAAGAACCTAGTAATTTCAACGCTTTCTACGAATGTTCTCAAGTTTCGACAATGTTTCTTTATCTAACCTTTCCTCCAACCAATTTCGCTGAATTTTTTTCCTCAAACCGATATTTTTTTCCTTCATTTTATTCTTGGAACGATCTAACTCTAACTTTAGTTCTCTTGCAGACATTCTAGTAGCACC (double strand) [PsigH]” bind?
A: Result: binds

Source: article PMC3485338
